Source: PubChem BioAssay AID504761 (Drosophila RNAi Screening Center, 2011)

- Purpose: 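Genome-wide fly cell screen for genes dengue virus requires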 (primary screen)
- Cell system: D.Mel-2 cells from Drosophila
- Reagents: long dsRNA against Drosophila genes
- Challenge: infection with dengue virus type 2; dose and infection time not stated
- Read-out: 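Cells stained for dengue envelope protein and imaged; percent of infected cells per well on duplicate plates, ranked by infection, with stained nuclei counted for cell number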
- Direction: infection score: higher = more virus-infected cells; cell count: higher = more cells in the well
- Active means: 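Very low infection ranking in both replicate wells (chance probability at most 0.065), then a retest showing infection dropped 1.5-fold or more at p below 0.05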
- Meaning of the calls: active = confirmed: knock-down lowers infection; inactive = not picked or not confirmed
In all, the deposit lists about 22,000 reagents; shown is an unselected part of those that have a named target and a result. Over the whole deposit, 116 (0.52%) got an active call. 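Calls depend on retest data that are not deposited; infection was ranked per plate without normalising between plates; the unit of the infection score is not given.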 Raw values vary from plate to plate and are shown uncorrected. The numbers tell different reagents against one gene apart. A plus sign joins genes that one reagent is predicted to hit. Further read-outs or replicates are left out here. Not stated in the record: the amount of reagent, the time to read-out.

no.	Gene	reagent	infection score, replicate 1	infection score, replicate 2	cell count, replicate 1	Outcome
1	Sys1 (Sys1 golgi trafficking protein)	1	13.1	16.2	5383	inactive
2	CG9003	1	7.56	3.78	6338	inactive
3	GstE11 (Glutathione S transferase E11)	1	5.56	13.7	6507	inactive
4	CG10365	1	5.55	1.6	5854	inactive
5	Arp6 (Actin-related protein 6)	1	1.92	3.76	6572	inactive
6	Arfip (Arfaptin)	1	24.7	15.9	6161	inactive
7	Arfip (Arfaptin)	2	8.9	1.41	6931	inactive
8	CG10576	1	9.44	15.7	4809	inactive
9	TTLL3A (Tubulin tyrosine ligase-like 3A)	1	3.94	1.43	6217	inactive
10	TTLL3A (Tubulin tyrosine ligase-like 3A)	2	14.4	24.4	2211	inactive
11	Erasp (Endoplasmic reticulum stress-associated serine protease)	1	42	48.7	2908	inactive
12	CCKLR-17D1 (Cholecystokinin-like receptor at 17D1)	1	3.38	2.26	5266	inactive
13	CCKLR-17D1 (Cholecystokinin-like receptor at 17D1)	2	11.3	0.16	4992	inactive
14	CCKLR-17D1 (Cholecystokinin-like receptor at 17D1)	3	4.1	41.2	6586	inactive
15	Pp1-Y2 (Protein phosphatase 1, Y-linked 2)	1	6.73	15.6	6062	inactive
16	MFS15 (Major Facilitator Superfamily Transporter 15)	1	1.37	0.67	6045	inactive
17	MFS15 (Major Facilitator Superfamily Transporter 15)	2	14.2	13	5992	inactive
18	CG6766	1	15.6	15.6	5710	inactive
19	CG9706	1	2.17	5.61	6685	inactive
20	CG14252	1	3.39	1.67	6402	inactive
21	Nadk1a (NAD kinase 1a)	1	4.73	1.2	6003	inactive
22	Nadk1a (NAD kinase 1a)	2	12	6.63	5424	inactive
23	GstE10 (Glutathione S transferase E10)	1		15.1	486	inactive
24	GstE10 (Glutathione S transferase E10)	2	16.9	15.9	3333	inactive
25	eIF2A (eukaryotic translation initiation factor 2A)	1	2.14	5.2	6387	inactive
26	CG4168	1	2.21	8.6	6146	inactive
27	CG4168	2	24.4	16.7	6349	inactive
28	CG4168	3	3.61	2.87	5980	inactive
29	CG4168	4	1.63	3.11	5959	inactive
30	tacc (transforming acidic coiled-coil protein)	1	3.27	1.72	6488	inactive
31	tacc (transforming acidic coiled-coil protein)	2	1.96	6.43	5983	inactive
32	tacc (transforming acidic coiled-coil protein)	3	18.3	12.9	4580	inactive
33	shi (shibire)	1	1.38	3.47	5579	inactive
34	shi (shibire)	2		4.29	284	inactive
35	Rim (Rab3 interacting molecule)	1	1.72	2.5	6159	inactive
36	Rim (Rab3 interacting molecule)	2	3.03	24.2	725	inactive
37	Rim (Rab3 interacting molecule)	3	1.49	4.46	6665	inactive
38	Rim (Rab3 interacting molecule)	4	1.87	2.46	6460	inactive
39	sw + Sdic4 + Sdic3 + 2 more	1	1.7	0.83	5167	inactive
40	sw + Sdic4 + Sdic3 + 2 more	2	19.2	0.31	3542	inactive
